Measured values from several laboratories, pooled; numbers as filed in NIAID ChemDB.

Common to all: tests in culture; organism: Plasmodium falciparum; read-out: EC50

Two numbers with a dash give a range or band. ECn: concentration that inhibits the pathogen or its effect by n%. Rows are shuffled and stem from different studies.

C[n+]1c2ccccc2c(NC2CCNCC2)c2[nH]c3ccccc3c21.[Cl-] ; strain: 3D7 ; value: 0.087 µM
COc1ccc(C=C2SC(=O)N(CC(=O)N3CCN(c4ccccc4)CC3)C2=O)cc1 ; method: fluorescence ; strain: W2 ; changes: Chloroquine-resistant ; value: >10 µM
OCCCCNc1nc(NCCCNc2ccnc3cc(Cl)ccc23)nc(N2CCOCC2)n1 ; strain: W2 ; value: 1.12 µM
C=CC1CN2CC[C@H]1CC2C(OC(=O)C1CC1)c1ccnc2ccccc12 ; cells: Erythrocytes ; method: flow cytometry ; strain: K1 ; value: 0.3178 µM
Cc1[nH]ccc2c(C)c3nc4ccccc4c3cc12 ; strain: K1 ; value: 1.4 µM
CN1CCc2cc3c(cc2C(=O)Cc2ccc4c(c2C1)OCO4)OCO3 ; strain: K1CB1 ; value: 1.38 µg/mL
C[C@@H]1CC[C@H]2[C@@H](C)C(=O)O[C@@H]3OC4(C)CC[C@@H]1[C@]32OO4 ; method: LDH / absorbance ; strain: W2 ; value: 0.0034 µg/mL
c1ccc2cc(OCCCCCN3CCCCC3)ccc2c1 ; cells: Erythrocytes ; method: flow cytometry ; strain: 3D7 ; value: >12.6 µM
C[C@@H]1CC[C@H]2[C@@H](C)C(=O)O[C@@H]3OC4(C)CC[C@@H]1[C@]32OO4 ; cells: human red blood cells ; method: broth dilution / radiometric ; strain: W2 ; value: 0.0133 µM
OCCCCNc1nc(NCCCCNc2ccnc3cc(Cl)ccc23)nc(N2CCCCC2)n1 ; strain: W2 ; value: 0.28 µM
COc1cc2c(cc1O)[C@@H]1Cc3ccc(OC)c(O)c3CN1CC2 ; strain: TM4/8.2 ; value: 1.78 µg/mL
CCc1cccc(OCCCCN(C)Cc2ccccc2)c1 ; cells: Erythrocytes ; method: flow cytometry ; strain: 3D7 ; value: >16.8 µM
OCCCNc1nc(NCCCCNc2ccnc3cc(Cl)ccc23)nc(N2CCOCC2)n1 ; strain: W2 ; value: 0.57 µM
CCN1C(=O)SC(=Cc2c(OC)cc(OC)cc2OC)C1=O ; method: fluorescence ; strain: W2 ; changes: Chloroquine-resistant ; value: >10 µM
CN1CCC(N2CCN(C(=O)CC3CCC4(CC3)OOC3(OO4)C4CC5CC(C4)CC3C5)CC2)CC1 ; strain: 3D7 ; value: 0.0015 µM
COc1cccc(CN2C(=O)SC(=Cc3c(OC)cc(OC)cc3OC)C2=O)c1 ; method: fluorescence ; strain: W2 ; changes: Chloroquine-resistant ; value: >10 µM
O=C(CC1CCC2(CC1)OOC1(OO2)C2CC3CC(C2)CC1C3)NCCN1CCCC1 ; strain: K1 ; value: 0.0009 µM
C=C[C@H]1CN2CC[C@H]1C[C@H]2[C@H](O)c1ccnc2ccc(OC)cc12 ; strain: RSA11 ; value: 0.381 µM
O=C(CC1NCCC[C@@H]1O)Cn1cnc(-c2ccccc2)cc1=O ; cells: Human A+ erythrocytes ; method: LDH / absorbance ; strain: FCR3 ; value: 0.0937 µg/mL
COc1cccc(C=C2SC(=O)N(CC(=O)N3CCN(c4ccccc4)CC3)C2=O)c1 ; method: fluorescence ; strain: W2 ; changes: Chloroquine-resistant ; value: >10 µM
COc1cc(/C=C2\CC/C(=C\c3ccc(OCCCn4ccnc4)c(OC)c3)C2=O)ccc1OCCCn1ccnc1 ; strain: W2 ; value: 0.56 µM
C/C=C1/CN2CCC34c5ccccc5N5C=C6[C@H]7C[C@@H]8N(CCC89c8ccccc8N(C=C([C@H]1C[C@H]23)[C@H]54)[C@@H]69)C/C7=C/C ; strain: W2 ; value: 0.303 µg/mL
O=C(CN1C(=O)SC(=Cc2ccccc2Cl)C1=O)N1CCN(c2ccccc2)CC1 ; method: fluorescence ; strain: W2 ; changes: Chloroquine-resistant ; value: >10 µM
CCN(CC)CCCC(C)Nc1ccnc2cc(Cl)ccc12 ; strain: D6 ; value: 0.053 µM
CCN(CC)CCCC(C)Nc1ccnc2cc(Cl)ccc12 ; cells: human red blood cells ; method: broth dilution / radiometric ; strain: FCM29 ; value: 0.641 µM
O=C(CC1CCC2(CC1)OOC1(OO2)C2CC3CC(C2)CC1C3)N1CCC(N2CCOCC2)CC1 ; strain: K1 ; value: 0.0028 µM
OCCCNc1nc(NCCCNc2ccnc3cc(Cl)ccc23)nc(N2CCOCC2)n1 ; strain: D6 ; value: 0.63 µM
COc1cc(O)c2c(=O)c(O)c(-c3ccc(O)c(O)c3)oc2c1 ; strain: Clinical isolates ; value: 27.04 µM
O=C(CC1NCCC[C@@H]1O)Cn1cncc(-c2ccccc2)c1=O ; cells: Human A+ erythrocytes ; method: LDH / absorbance ; strain: K1 ; value: 0.0475 µg/mL
CCOC(=O)C1=C(O)CSC1=Nc1ccc(Br)cc1C ; strain: 3D7 ; value: >20 µM
C[C@H]1[C@@H](OC(=O)CCC(=O)O)O[C@@H]2O[C@@]3(C)CC[C@H]4[C@H](C)CC[C@@H]1[C@@]24OO3 ; method: fluorescence ; strain: W2 ; changes: Chloroquine-resistant ; value: 0.019 µM
O=c1c2ccccc2ncn1CC1(O)CC2NCCCC[C@@H]2O1 ; cells: Human A+ erythrocytes ; method: LDH / absorbance ; strain: FCR3 ; value: 0.123 µg/mL
C/C=C1/CN2CCC34c5ccccc5N5C(OC)C67OC(C([C@H]53)[C@H]1C[C@H]24)N1c2ccccc2C2(CCN3C/C(=C/C)[C@@H]6C[C@H]32)[C@@H]17 ; strain: W2 ; value: 0.326 µg/mL
CCc1nc(N)nc(N)c1-c1ccc(Cl)cc1 ; strain: RSA11 ; value: 0.036 µM
C[C@@H]1C[C@H](C)C[C@H](C)[C@@H](O)CC(=O)O[C@@H](C2CCC[C@H]2C(=O)O)C/C=C/C=C(/CN)[C@H](O)[C@@H](C)C1 ; cells: Erythrocyte ; method: LDH ; strain: FCR3 ; value: 0.00088 µg/mL
Cc1ccc(OCC(O)CN2CCc3ccccc3C2)c(C(C)(C)C)c1 ; cells: Erythrocytes ; method: flow cytometry ; strain: K1 ; value: 1.66 µM
OCCCNc1nc(NCCNc2ccnc3cc(Cl)ccc23)nc(N2CCOCC2)n1 ; strain: W2 ; value: 1.56 µM
O=C(O)c1cn(C2CC2)c2cc(N3CCNCC3)c(F)cc2c1=O ; method: fluorescence ; strain: 3D7 ; value: 23.1 µM
C=C1CN2CCC34c5ccccc5N5C=C([C@H]6CC7C8=C(CCN7C/C6=C/C)C6C=CC=CC6N8)[C@@H](O)[C@@H]([C@H]53)[C@H]1C[C@]24O ; strain: W2 ; value: 12.8 µg/mL
COc1cc2c(cc1O)[C@@H]1Cc3ccc4c(c3CN1CC2)OCO4 ; strain: K1CB1 ; value: 1.22 µg/mL
CCCCN(CCCC)CC(O)COc1cccc2ccccc12 ; cells: Erythrocytes ; method: flow cytometry ; strain: K1 ; value: 0.1457 µM
O=C(CC1NCC[C@@H]1O)Cn1cnc2ccccc2c1=O ; cells: Human A+ erythrocytes ; method: LDH / absorbance ; strain: FCR3 ; value: 0.0611 µg/mL
Cc1ccc(C2OOC(c3ccc(CO)cc3)OO2)cc1 ; method: LDH ; strain: W2 ; value: 2.24 µM
CCN(CC)CCOc1ccccc1C(=O)CCc1ccccc1 ; cells: Erythrocytes ; method: flow cytometry ; strain: 3D7 ; value: >18.8 µM
COc1cc(OC)c(C=C2SC(=O)N(Cc3ccc(C(F)(F)F)cc3)C2=O)c(OC)c1 ; method: fluorescence ; strain: W2 ; changes: Chloroquine-resistant ; value: >10 µM
C=CC1CN2CCC1CC2[C@H](O)c1ccnc2ccc(OC)cc12 ; strain: 3D7 ; value: 0.11 µM
O=C1CSC(Nc2ccc3ccccc3c2)=C1CONCC1CC1 ; strain: Dd2 ; value: >20 µM
COc1cc(OC)c(C=C2SC(=O)N(CC(=O)N3CCN(C(=O)c4ccccc4)CC3)C2=O)c(OC)c1 ; method: fluorescence ; strain: W2 ; changes: Chloroquine-resistant ; value: 4.7 µM
CCOC(=O)C1=C(O)CSC1=Nc1ccc2ccccc2c1 ; strain: 3D7 ; value: 0.079–0.75 µM
COc1ccc2nccc([C@@H](O)C3CC4CCN3CC4/C=C/c3ccc4ccccc4c3)c2c1 ; strain: HB3 ; value: >0.5 µM
C[C@@H]1CC[C@H]2[C@@H](C)C(=O)O[C@@H]3OC4(C)CC[C@@H]1[C@]32OO4 ; strain: D10 ; value: 0.036 µM
CC(C)(O)[C@H](O)COc1c2occc2cc2ccc(=O)oc12 ; cells: RBC ; strain: CQ-sensitive ; value: 6 µg/mL
COc1cc(/C=C2\CC/C(=C\c3ccc(OCCN(C)C)c(OC)c3)C2=O)ccc1OCCN(C)C ; strain: D6 ; value: 1.14 µM
OCCCNc1nc(NCCNc2ccnc3cc(Cl)ccc23)nc(N2CCCCC2)n1 ; strain: W2 ; value: 0.83 µM
O=C(CN1C(=O)CSC1=O)N1CCN(c2ccccc2)CC1 ; method: fluorescence ; strain: W2 ; changes: Chloroquine-resistant ; value: >10 µM
C[C@@H]1CC[C@H]2[C@@H](C)C(=O)O[C@@H]3OC4(C)CC[C@@H]1[C@]32OO4 ; method: SYBR Green / fluorescence ; strain: KAE678R-3 ; changes: KAE678-resistant pfatp4 I203M/I263V ; value: 0.0181 µM
CCCCNCCCCCOc1ccc2ccccc2c1 ; cells: Erythrocytes ; method: flow cytometry ; strain: 3D7 ; value: >13.1 µM
O=c1c2ccccc2ncn1CCCC1NCCC[C@@H]1O ; cells: Human A+ erythrocytes ; method: LDH / absorbance ; strain: K1 ; value: 0.0236 µg/mL
COc1ccc(Nc2cc(C)nc3c2ccc2ccccc23)cc1OC ; cells: Erythrocytes ; method: flow cytometry ; strain: 3D7 ; value: 3.99 µM
C[C@@H]1CC[C@H]2[C@@H](C)C(=O)O[C@@H]3OC4(C)CC[C@@H]1[C@]32OO4 ; strain: D6 ; value: 0.015 µM
CCOC(=O)c1cn(CC(F)(F)F)c2ccc3nc(-c4ccc(F)cc4)c(-c4ccc(F)cc4)nc3c2c1=O ; method: fluorescence ; strain: W2 ; value: 3.92 µM

The first 4 rows once more:

C[n+]1c2ccccc2c(NC2CCNCC2)c2[nH]c3ccccc3c21.[Cl-] ; strain: 3D7 ; value: 0.087 µM
COc1ccc(C=C2SC(=O)N(CC(=O)N3CCN(c4ccccc4)CC3)C2=O)cc1 ; method: fluorescence ; strain: W2 ; changes: Chloroquine-resistant ; value: >10 µM
OCCCCNc1nc(NCCCNc2ccnc3cc(Cl)ccc23)nc(N2CCOCC2)n1 ; strain: W2 ; value: 1.12 µM
C=CC1CN2CC[C@H]1CC2C(OC(=O)C1CC1)c1ccnc2ccccc12 ; cells: Erythrocytes ; method: flow cytometry ; strain: K1 ; value: 0.3178 µM